Measured values as given in the supplement of paper PMC3578754.

Assays:
Test in all cases: fold change of IC50 against reference virus; higher = more resistant
[1] = compound: CC(C)Nc1cccnc1N1CCN(C(=O)c2cc3cc(NS(C)(=O)=O)ccc3[nH]2)CC1 [delavirdine]
Procedure: (§1)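 Cell-culture drug susceptibility tests of virus bearing the reverse transcriptase of each isolate, gathered from many studies.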

[2] = compound: Cc1ccnc2c1NC(=O)c1cccnc1N2C1CC1 [nevirapine]
Procedure: as §1

[3] = compound: Cc1cn([C@H]2C=C[C@@H](CO)O2)c(=O)[nH]c1=O [stavudine]
Procedure: as §1

[4] = compound: Cc1cn([C@H]2C[C@H](N=[N+]=[N-])[C@@H](CO)O2)c(=O)[nH]c1=O [zidovudine]
Procedure: as §1

[5] = compound: Nc1ccn([C@H]2CC[C@@H](CO)O2)c(=O)n1 [zalcitabine]
Procedure: as §1

[6] = compound: Nc1nc(NC2CC2)c2ncn([C@H]3C=C[C@@H](CO)C3)c2n1 [abacavir]
Procedure: as §1

[7] = compound: O=C1Nc2ccc(Cl)cc2[C@@](C#CC2CC2)(C(F)(F)F)O1 [efavirenz]
Procedure: as §1

[8] = compound: O=c1[nH]cnc2c1ncn2[C@H]1CC[C@@H](CO)O1 [didanosine]
Procedure: as §1

Test System | fold change of IC50 against reference virus [1] | fold change of IC50 against reference virus [2] | fold change of IC50 against reference virus [3] | fold change of IC50 against reference virus [4] | fold change of IC50 against reference virus [5] | fold change of IC50 against reference virus [6] | fold change of IC50 against reference virus [7] | fold change of IC50 against reference virus [8]
HIV-1 isolate 846 (reverse transcriptase changes: K102Q Q151M S162C K277R, study 110) | 2.7 | 1.9 | 2.9 | 7.4 | 2.2 | 5.7 | 1.9 | 6.8
HIV-1 isolate 863 (reverse transcriptase changes: K70R D177N I178L Q197E R211K V245T D250E T286A I293V, study 119) | 3.5 | 3.4 | 1.3 | 5.3 | 0.9 | 1.1 | 1.5 | 1.2
HIV-1 isolate 865 (reverse transcriptase changes: D67N T69D K101E K122E Y181C G190A I202V T215Y K219N A272P K277R Q278E T286A E297K G335D R356K M357R K366R A376V T386A A400T, study 54) | 19.7 | 893 | 1.7 | 7.3 | 1.1 | 1.9 | 101 | 1.8
HIV-1 isolate 976 (reverse transcriptase changes: M41L R83K D123E M184V G196E R211K T215Y A272P E297K, study 109) | 0.2 | 0.3 | 1.2 | 2.2 | 1.6 | 2.5 | 0.2 | 1.4
HIV-1 isolate 999 (reverse transcriptase changes: K20R T39A M41L E44D D67N V118I K122E I135T D177E M184V H208Y L210W R211N T215Y K219N L283I R284K I293V E297K A304G, study 112) | 0.7 | 0.6 | 3.9 | 101 | 4 | 9.9 | 0.5 | 2.1
HIV-1 isolate 1052 (reverse transcriptase changes: A62V S68G T69K K70G V75I F77L Y115F F116Y K122E Q151M K166R D177E M184V R211K K277R I293V E297K, study 112) | 1.4 | 0.6 | 11.3 | 228 | 65.4 | 20 | 0.8 | 20.1
HIV-1 isolate 1080 (reverse transcriptase changes: M41L D123E I135T I142T D177E V179I M184V G196E L210W T215Y L228R, study 112) | 0.4 | 0.6 | 1.7 | 14.1 | 2.6 | 8.5 | 0.4 | 1.7
HIV-1 isolate 1083 (reverse transcriptase changes: D123E I142T D177E V245I D250E I293V A376T A400S, study 54) | 2.1 | 1.2 | 0.8 | 0.8 | 1 | 0.8 | 1.2 | 1
HIV-1 isolate 1092 (reverse transcriptase changes: K65R K102Q S162C K277R, study 110) | 1.1 | 1 | 1.7 | 0.4 | 2.5 | 2.6 | 0.8 | 1.8
HIV-1 isolate 1116 (reverse transcriptase changes: I135T G196E V245E A272P K277R I293V P294Q K311R G335E R356K M357R V365I T369A K374R T386I K390R A400T, study 54) | 3.3 | 2.4 | 1.2 | 1 | 0.5 | 0.8 | 1.8 | 1.2
HIV-1 isolate 1153 (reverse transcriptase changes: K20R M41L R83K K122P E138A K166R V179I M184V T200A L210W T215Y, study 40) | 1 | 1 | 1 | 225 | 2 | 5 | 1 | 3
HIV-1 isolate 1171 (reverse transcriptase changes: K20R M41L K101R K103N T128I I135V I142V N147H Y181C V189I R211T F214L T215Y, study 40) | 51 | 321 | 1 | 3 | 1 | 4 | 47 | 2
HIV-1 isolate 1172 (reverse transcriptase changes: M41L E44D G45E V60I T69D K101R K102Q V118I P133L I135T N175Y M184V T200S K201M E203K H208Y L210W R211K T215Y K219R, study 40) | 1 | 4 | 7 | 103 | 19 | 25 | 1 | 7
HIV-1 isolate 1190 (reverse transcriptase changes: D67N K102R V106A D123E K166R V179I M184V T200A I202V Q207E F227L, study 40) | 4 | 123 | 2 | 1 | 7 | 10 | 14 | 3
HIV-1 isolate 1210 (reverse transcriptase changes: S48T K122E I135M M184V P243T, study 28) | 0.5 | 0.3 | 0.6 | 0.3 | 1.5 | 1.7 | 0.2 | 1.1
HIV-1 isolate 1226 (reverse transcriptase changes: I142V S162C M184V R211K, study 28) | 2 | 1.1 | 0.7 | 0.3 | 1.5 | 2.9 | 1.3 | 1.3

Fold change is the IC50 on the isolate divided by the IC50 on a reference virus; 1 = unchanged, higher = more resistant. Changes are given against the subtype B consensus. No active / inactive call. The values were gathered from many studies (numbered anew) with different assays, which the source does not name. Most viruses are clinical isolates; some are laboratory strains or clones with known resistance changes. Isolates with mixed residues are left out; stretches that were not sequenced show no change. Round top values that many isolates share are read here as limits; other very high values and 0.1 may be limits too.
